Results of unrelated studies side by side (data: NIAID ChemDB).

All rows: tests in culture; agent: HIV-1; cells: PBMC; measure: EC50

ECn: concentration that inhibits the pathogen or its effect by n%.

smiles | strain | changes | method | conditions | value
c1cc(CN2CCCNCCNCCCNCC2)ccc1CN1CCCNCCNCCCNCC1 | SW23 CLADE C R5 | - | p24 | - | >0.5 µM
Cc1cn([C@H]2C[C@H](N=[N+]=[N-])[C@@H](CO)O2)c(=O)[nH]c1=O | X267-2 Clinical isolate ZDV-resistant | RT-M41L T215Y | p24 | - | 0.4 µM
Cc1cn([C@H]2C[C@H](N=[N+]=[N-])[C@@H](CO)O2)c(=O)[nH]c1=O | CLADE A | - | cytopathic effect / XTT | clinical isolate | 0.008 µM
Nc1ccn([C@@H]2CS[C@H](CO)O2)c(=O)n1 | 52534-2 NRTI resistant recombinant | RT-M41L T69ins L74V M184V L210W T215Y | RT activity | - | >10 µM
O=c1[nH]cnc2c1ncn2[C@H]1CC[C@@H](CO)O1 | Recombinant | RT-V75I F77L Q151M | p24 | - | 2 µM
COC(=O)[C@H](C)NP(=O)(OC[C@@H]1C=C[C@H](n2cc(C)c(=O)[nH]c2=O)O1)Oc1ccc(Br)cc1 | 56252-1 NRTI resistant recombinant | RT-T69K K70G V75I F77L F116Y Q151M M184V | RT activity | - | 0.0063 µM
S=C(NCCc1cccs1)Nc1ccc(Br)cn1 | A17var RT-Y181C K103N NNRTI-resistant | - | p24 | - | 2.054 µM
COC(=O)[C@H](C)NP(=O)(OC[C@@H]1C=C[C@H](n2cc(C)c(=O)[nH]c2=O)O1)Oc1ccc(Br)cc1 | A17 NNRTI-resistant lab strain | RT-Y181C | p24 | - | <0.001 µM
O=c1[nH]cnc2c1ncn2[C@H]1CC[C@@H](CO)O1 | LAI | - | - | - | 0.85 µM
Cc1cn([C@H]2C[C@H](N=[N+]=[N-])[C@@H](CO)O2)c(=O)[nH]c1=O | Recombinant | RT-A62V | p24 | - | 0.001 µM
Cc1cn([C@H]2C[C@H](N=[N+]=[N-])[C@@H](CO)O2)c(=O)[nH]c1=O | MVP5180 (RT A98G K103R) | RT-A98G K103R | - | - | <0.01 µM
O=C1N(Cc2ccc(CO)cc2)[C@H](Cc2ccccc2)[C@H](O)[C@@H](O)[C@@H](Cc2ccccc2)N1Cc1ccc(CO)cc1 | A018A | - | p24 | - | 0.07 µM
CC(C)(C)NC(=O)[C@@H]1C[C@@H]2CCCC[C@@H]2CN1C[C@@H](O)[C@H](Cc1ccccc1)NC(=O)[C@H](CC(N)=O)NC(=O)c1ccc2ccccc2n1 | BCF02 | PR-L10V K20C M36I L63T I64V A71V | - | - | 0.0132 µM
Cc1cn([C@H]2C[C@H](N=[N+]=[N-])[C@@H](CO)O2)c(=O)[nH]c1=O | 8684 CLADE C CLADE C | - | p24 | - | 0.004 µM

Repeating the first 2 entries:

{"smiles": "c1cc(CN2CCCNCCNCCCNCC2)ccc1CN1CCCNCCNCCCNCC1", "strain": "SW23 CLADE C R5", "method": "p24", "value": ">0.5 µM"}
{"smiles": "Cc1cn([C@H]2C[C@H](N=[N+]=[N-])[C@@H](CO)O2)c(=O)[nH]c1=O", "strain": "X267-2 Clinical isolate ZDV-resistant", "changes": "RT-M41L T215Y", "method": "p24", "value": "0.4 µM"}

Lines come from different laboratories, so protocols vary. An empty or dashed field is not shown.